Consider 30 compounds from PubChem BioAssay AID1476 (National Center for Advancing Translational Sciences (NCATS), 2009).

By UniProt entry, the sequences of proteins in these tests, tags left out. Residues count along the entry.
UniProt P25779, 123-467 limits assumed: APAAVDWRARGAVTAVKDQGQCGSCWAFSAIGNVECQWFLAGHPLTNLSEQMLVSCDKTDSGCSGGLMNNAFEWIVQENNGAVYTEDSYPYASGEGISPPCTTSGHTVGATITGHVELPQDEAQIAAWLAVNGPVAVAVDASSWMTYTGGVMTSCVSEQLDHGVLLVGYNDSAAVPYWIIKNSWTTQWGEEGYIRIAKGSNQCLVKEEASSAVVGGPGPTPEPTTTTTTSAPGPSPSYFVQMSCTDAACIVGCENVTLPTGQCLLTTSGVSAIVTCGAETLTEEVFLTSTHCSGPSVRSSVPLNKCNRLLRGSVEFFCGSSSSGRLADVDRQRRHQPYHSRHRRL

Structures are written as SMILES. The list shows a part of the results, in another mix than the full data. Records with an inconclusive call do not appear. Active and inactive are the calls of the source. Calls come from the whole dose curve; as a rule, active = well fitted inhibition curve with a large enough effect; inconclusive = small, poorly fitted or top-dose-only effect, or effect the other way; inactive = flat fitted curve, though single readings scatter.

This assay has as its target Cruzipain (Trypanosoma cruzi) (UniProt P25779). As to the kind of experiment: qHTS Assay for Promiscuous and Specific Inhibitors of Cruzain (without detergent).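 Note: plate controls were enzyme without inhibitor for no effect and buffer without enzyme for full effect; nearly all actives have a fitted effect of over 40% in size.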 The conditions noted are these: purified cruzain, Z-FR-AMC fluorescence, no detergent. (In general: Quantitative high-throughput screening tests each substance at several concentrations.)
`O=C(OC1CN2CCC1CC2)C1c2ccccc2Oc2ccccc21` (stereo not given): the max response, negative = inhibition was inactive: -6.15%.

In the case of `O=C(NCC1(N2CCOCC2)CCCCC1)c1cc2ccccc2o1`, the max response, negative = inhibition was inactive: -7.67%.

Take `COc1ccccc1C(=O)NCC1(N2CCOCC2)CCCCC1`: the max response, negative = inhibition was inactive: 4.11%.

Take `COc1ccc(NC2CCN(CCc3ccccc3)CC2)c(OC)c1`: the max response, negative = inhibition was inactive: -7.65%.

Take `O=C(NCC1(N2CCOCC2)CCCCC1)c1ccc(Cl)cc1`: the max response, negative = inhibition is inactive: 6.04%.

Take `O=C(NCC1(N2CCOCC2)CCCCC1)c1cc(=O)[nH]c2ccccc12`: the max response, negative = inhibition was inactive: -9.45%.

On to `CN1CCN(CCOC(=O)C(O)(c2ccccc2)c2ccccc2)CC1`, for which the max response, negative = inhibition was inactive: 4.78%.

On to `CCCOc1cccc(C(=O)NCC2(N3CCOCC3)CCCCC2)c1`, for which the max response, negative = inhibition is inactive: -3.27%.

On to `N#CC1(Nc2ccccc2)CCN(CCc2ccccc2)CC1`, for which the max response, negative = inhibition is inactive: -8.3%.

For `CCOc1ccc(C(=O)NCC2(N3CCOCC3)CCCCC2)cc1`, the max response, negative = inhibition is inactive: 2.22%.

For `CCCCOc1ccccc1C(=O)NCC1(N2CCOCC2)CCCCC1`, the max response, negative = inhibition is inactive: 7.74%.

`O=C(NCC1(N2CCOCC2)CCCCC1)c1ccccc1Br`: the max response, negative = inhibition was inactive: -7.93%.

`NC1CCCCC1.NP(=O)(O)N(CCCl)CCCl`: the max response, negative = inhibition was inactive: 12.2%.

Take `CCOP(=O)(Cl)Cl`: the max response, negative = inhibition was inactive: -2.88%.

With `O=C(OC1CN2CCC1CC2)C1c2ccccc2C=Cc2ccccc21` (stereo not given), the max response, negative = inhibition was inactive: 2.05%.

For `N/C(=N\O)c1c(N)no[n+]1[O-]`, the max response, negative = inhibition was inactive: -5.13%.

Take `ClCCOP(OCCCl)OCCCl`: the max response, negative = inhibition was inactive: -12.9%.

On to `c1ccc(CN2CCC(Nc3ccccc3)CC2)cc1`, for which the max response, negative = inhibition is inactive: -6.4%.

On to `O=C(NCC1(N2CCOCC2)CCCCC1)c1ccccc1`, for which the max response, negative = inhibition is inactive: 2.74%.

For the compound `O=C(NCC1(N2CCOCC2)CCCCC1)c1ccccc1[N+](=O)[O-]`, the max response, negative = inhibition is inactive: -3.72%.

Consider `O=C(NCC1(N2CCOCC2)CCCCC1)c1ccc([N+](=O)[O-])cc1`, for which the max response, negative = inhibition is inactive: 2.37%.

`Cc1ccccc1C(=O)NCC1(N(C)C)CCCCC1`: the max response, negative = inhibition is inactive: -4.97%.

With `CC(C)(C)c1ccc(C(=O)NCC2(N3CCOCC3)CCCCC2)cc1`, the max response, negative = inhibition was inactive: 6.29%.

For the compound `CCN1CCC(Nc2cccc(F)c2)CC1`, the max response, negative = inhibition is inactive: 4.87%.

In the case of `Fc1ccccc1NC1CCN(Cc2ccccc2)CC1`, the max response, negative = inhibition was inactive: -0.394%.

Turning to `CN(C)C1(CNC(=O)c2ccc(C(C)(C)C)cc2)CCCCC1`, the max response, negative = inhibition was inactive: -3.96%.

Take `COc1cc(C(=O)NCC2(N3CCOCC3)CCCCC2)cc(OC)c1OC`: the max response, negative = inhibition is inactive: -0.175%.

Take `CCC(CO)(C(=O)OC1CN2CCC1CC2)c1ccccc1` (stereo not given): the max response, negative = inhibition was inactive: -4.35%.

On to `O=C(O)C1(Nc2ccccc2)CCN(Cc2ccccc2)CC1`, for which the max response, negative = inhibition was inactive: 2.13%.

Turning to `CCOc1ncccc1C(=O)NCC1(N2CCOCC2)CCCCC1`, the max response, negative = inhibition is inactive: 0.65%.
